From patent publication US20150023988A1
“And” between values parts separate entries of the source, which are not always exact repeats. Equal values may be shown once.

Experiments:
Assay in all cases: cell-based or functional assay
[1] = biological target: human voltage-gated sodium channel Nav1.7 (human) (UniProt Q15858)
[2] = biological target: human voltage-gated sodium channel Nav1.4 (human) (UniProt P35499)
[3] = biological target: human voltage-gated sodium channel Nav1.5 (human) (UniProt Q14524)
[4] = biological target: human voltage-gated sodium channel Nav1.4 (human), P35499

Molecule | PX hNav1.7 Tonic IC50 [1] [nM] | PX hNav1.4 Tonic IC50 [2] | PX hNav1.5 Tonic IC50 [3] | further results
Leu-[Nle6]JzTx-V(1-29) (peptide; modification not given) | 0.134 | – | – | –
[Glu1;Tyr28]JzTx-V(1-29) (peptide; modification not given) | – | – | – | IC50 (IonWorks Quattro) [2]: 700 nM; Nav1.4/Nav1.7 (ratio of IC50s) [2]: 16; IC50 (IonWorks Quattro) [3]: > 5000 nM
Pro-[Nle6]JzTx-V(1-29) (peptide; modification not given) | 0.372 | – | – | –
[Ala20]JzTx-V(1-29) (peptide; modification not given) | 12 | 100 nM | 2750 nM | –
[Glu20;Atz(NPEG10)28]JzTx-V(1-29) (peptide; modification not given) | – | – | – | Nav1.4/Nav1.7 (ratio of IC50s) [2]: 3
Sar-[Nle6]JzTx-V(1-29) (peptide; modification not given) | 0.325 | 6.1 nM | 830 nM | –
Val-[Nle6]JzTx-V(1-29) (peptide; modification not given) | 0.551 | – | – | –
Gly-[Nle6]JzTx-V(1-29) (peptide; modification not given) | 0.384 | – | – | –
[Pra1; Nle6; Glu28]JzTx-V(1-29) (peptide; modification not given) | 0.269 | 150 nM | 4620 nM | –
D-Leu-[Nle6]JzTx-V(1-29) (peptide; modification not given) | 0.151 | 28.7 nM | 410 nM | –
[Glu20;Tyr28;2-Nal29]JzTx-V(1-29) (peptide; modification not given) | – | – | – | IC50 (IonWorks Quattro) [2]: > 5000 nM; IC50 (IonWorks Quattro) [3]: > 5000 nM
hLeu-[Nle6]JzTx-V(1-29) (peptide; modification not given) | 0.676 | 8.5 nM | 420 nM | –
[Glu29]JzTx-V(1-29) (peptide; modification not given) | 261 | 11300 nM | > 10000 nM | –
Tyr-[Nle6]JzTx-V(1-29) (peptide; modification not given) | 0.372 | – | – | –
hPhe-[Nle6]JzTx-V(1-29) (peptide; modification not given) | 0.476 | 4.8 nM | 440 nM | –
[Nle6; Atz(NPEG10)29]JzTx-V(1-29) (peptide; modification not given) | 22 | – | – | –
[Glu20,Trp29]JzTx-V(1-29) (peptide; modification not given) | – | – | – | Nav1.4 selectivity (relative to hNav1.7) [2]: > 1000 fold; average hNav1.7 IC50, PX format [1]: 1.5 nM
[Glu20; Tyr28; Leu29]JzTx-V(1-29) (peptide; modification not given) | 2.6 | 626 nM | 7330 nM | –
[Glu20; Tyr28; Nle29]JzTx-V(1-29) (peptide; modification not given) | 6.2 | 786 nM | 9770 nM | –
Nle-[Nle6]JzTx-V(1-29) (peptide; modification not given) | 0.223 | 4.6 nM | 830 nM | –
bAla-[Nle6]JzTx-V(1-29) (peptide; modification not given) | 0.951 | 3.2 nM | 700 nM | –
Ile-[Nle6]JzTx-V(1-29) (peptide; modification not given) | 0.519 | – | – | –
Trp-[Nle6]JzTx-V(1-29) (peptide; modification not given) | 0.334 | – | – | –
[Glu20; Tyr28]JzTx-V(1-29) (peptide; modification not given) | 0.9 | 1270 nM | 11400 nM | –
[Glu20;Tyr28;1-Nal29]JzTx-V(1-29) (peptide; modification not given) | – | – | – | Nav1.4/Nav1.7 (ratio of IC50s) [2]: 91; IC50 (IonWorks Quattro) [1]: 50 nM

Molecule | PX hNav1.7 Tonic IC50 [1] [nM] | PX hNav1.4 Tonic IC50 [2] | PX hNav1.5 Tonic IC50 [3] | further results
[Atz(NPEG10)1;Nle6]JzTx-V(1-29) (peptide; modification not given) | – | – | – | Nav1.4/Nav1.7 (ratio of IC50s) [2]: 4 and 3; IC50 (IonWorks Quattro) [3]: > 7000 nM; IC50 (IonWorks Quattro) [1]: 100 nM
CyA-[Nle6]JzTx-V(1-29) (peptide; modification not given) | 0.307 | – | – | –
[Glu1, 20; Tyr28]JzTx-V(1-29) (peptide; modification not given) | 5.5 | 939 nM | > 10000 nM | –
D-Ala-[Nle6]JzTx-V(1-29) (peptide; modification not given) | 0.957 | 5.1 nM | 730 nM | –
[Nle6; Atz(NPEG10)11]JzTx-V(1-29) (peptide; modification not given) | 9.3 | 27 nM | 1860 nM | Nav1.4/Nav1.7 [2]: 3 fold; Nav1.5/Nav1.7 [3]: 200 fold
[Glu20; Val28]JzTx-V(1-29) (peptide; modification not given) | 4.1 | 1310 nM | 5500 nM | –
Atz(NPEG10)-[Nle6]JzTx-V(1-29) (peptide; modification not given) | – | – | – | Nav1.4/Nav1.7 (ratio of IC50s) [2]: 2; IC50 (IonWorks Quattro) [1]: 70 nM
[Glu20; Tyr28; 1-Nal29]JzTx-V(1-29) (peptide; modification not given) | 4.5 | 1670 nM | 2160 nM | –
[Glu28]JzTx-V(1-29) (peptide; modification not given) | 1 | 300 nM | 8800 nM | –
Abu-[Nle6]JzTx-V(1-29) (peptide; modification not given) | 0.143 | 11 nM | 480 nM | –
[Glu20; Ser28]JzTx-V(1-29) (peptide; modification not given) | – | 4790 nM and 3580 nM and 2970 nM | > 10000 nM and 14600 nM | –
[Nle6;Atz(NPEG10)29]JzTx-V(1-29) (peptide; modification not given) | – | – | – | Nav1.4/Nav1.7 (ratio of IC50s) [2]: 2; IC50 (IonWorks Quattro) [3]: > 7000 nM; IC50 (IonWorks Quattro) [1]: 400 nM
Phe-[Nle6]JzTx-V(1-29) (peptide; modification not given) | 0.493 | – | – | –
[Glu1]JzTx-V(1-29) (peptide; modification not given) | 0.3 | 8 nM | 6440 nM | –
Nva-[Nle6]JzTx-V(1-29) (peptide; modification not given) | – | 11.6 nM | 490 nM | –
[Atz(NPEG10)1; Nle6]JzTx-V(1-29) (peptide; modification not given) | 1 | 15 nM | 950 nM | Nav1.4/Nav1.7 [2]: 15 fold; Nav1.5/Nav1.7 [3]: 946 fold
[Glu20; Nva28]JzTx-V(1-29) (peptide; modification not given) | 12.8 | 5190 nM | 7820 nM | –
[Glu20; Tyr28; 2-Nal29]JzTx-V(1-29) (peptide; modification not given) | 4.6 | 1220 nM | 1990 nM | –
Pra-[Nle6; Glu28]JzTx-V(1-29) (peptide; modification not given) | 0.515 | 130 nM | – | –
[Glu20; 1-Nal24; Tyr28]JzTx-V(1-29) (peptide; modification not given) | 12 | 5210 nM | – | –
D-Phe-[Nle6]JzTx-V(1-29) (peptide; modification not given) | 0.351 | 6.8 nM | 620 nM | –
[Glu20; Cit28]JzTx-V(1-29) (peptide; modification not given) | 5.6 | 6020 nM | > 10000 nM | –
AllylG-[Nle6]JzTx-V(1-29) (peptide; modification not given) | 0.488 | – | – | –
Ala-[Nle6]JzTx-V(1-29) (peptide; modification not given) | 0.307 | – | – | –
VYCQKWLWTCDSKRKCCEGLRCKLWCRKEI (modifications not checked) [Nva-[Leu6; Lys(Pra)14; Glu28]JzTx-V(1-29)] | – | – | – | PX hNav1.4 Tonic IC50 [4]: 293 nM and 300 nM
